A mixed list of measured activities; the numbers were collected in NIAID ChemDB.

All rows: tests in culture; species: HIV-1

a–b is a range or a potency band. ECn: concentration that inhibits the pathogen or its effect by n%. Blank or dashed fields: not listed here. Conditions beyond the fields shown may differ between rows.

compound | measure | strain | read by | cell line | mutations | value
Cc1ccc2sn(/N=C/c3ccc([N+](=O)[O-])cc3)c(=O)c2c1 | EC50 |  | MTT | MT-4 | K103N + Y181C | >100 µM
CC(C)S(=O)(=O)N1CCN([C@H](CN[C@]23CC[C@@H](C4(C)CC4)[C@@H]2[C@H]2CC[C@@H]4[C@@]5(C)CC[C@H](OC(=O)[C@H]6C[C@@H](C(=O)O)C6(C)C)C(C)(C)[C@@H]5CC[C@@]4(C)[C@]2(C)CC3)[C@@H](C)O)CC1 | EC50 | NL4-3 | p24 / ELISA | MT-4 | V7A | <0.05 µM
COc1ccc(/C=N/n2sc3ccc(C)cc3c2=O)cc1 | EC50 |  | MTT | MT-4 | EFV-resistant (K103 V179D P225H) | >55 µM
CC(C)[C@H](NC(=O)OCc1ccccn1)C(=O)N[C@@H](Cc1ccccc1)[C@@H](O)C[C@H](Cc1ccccc1)NC(=O)OCc1cccnc1 | EC95 | NL4-3 | p24 | MT-4 | PR-M46I V82T | 1.5 µM
Cc1cc(CNC(=O)c2nc3n(c(=O)c2O)[C@H](C)COC[C@@H]3N(C)C(=O)C(=O)N(C)C)ccc1F | EC50 |  | single cycle | HeLa P4-2 | Q148R | 0.003 µM
O=c1c2ccccc2sn1/N=C/c1ccc([N+](=O)[O-])cc1[N+](=O)[O-] | EC50 |  | MTT | MT-4 | EFV-resistant (K103 V179D P225H) | >100 µM
Cc1cc(/C=C/C#N)cc(C)c1Oc1nc(NC2CCN(Cc3ccccc3F)CC2)nc2ccsc12 | EC50 | IIIB | MTT | MT-4 | NNRTI-resistant (RT L100I) | 0.0304 µM
O=C1Nc2ccc(Cl)cc2[C@@](/C=C/C2CC2)(C(F)(F)F)N1 | EC90 |  |  |  | RT-K101E | <0.012 µM
Nc1nccc2c1ncn2[C@@H]1O[C@H](CO)[C@@H](O)[C@H]1O | EC50 | A018 PRE-AZT | p24 | PBMC |  | 0.226 µM
Cc1ccc(CN2CCC(Nc3nc(Oc4c(C)cc(/C=C/C#N)cc4C)c4sccc4n3)CC2)cc1 | EC50 | IIIB | MTT | MT-4 | NNRTI-resistant (RT L100I) | 0.0319 µM
CC(C)OC(=O)c1cc(NC(=S)OC(C)C)ccc1Cl | EC50 | IIIB | syncytia | CEM | RT-L100I | 2.06 µM
Cc1cn([C@H]2C=C[C@@H](CO)O2)c(=O)[nH]c1=O | EC50 | RD 04-RT-210W 215D Recombinant | cytopathic effect / MTT | MT-4 |  | 0.5 µM
C=C1CN(S(=O)(=O)c2ccc(C)cc2)CCCN(Cc2ccccc2)CCCN(S(=O)(=O)c2ccc(C)cc2)C1 | EC50 | NL4-3 | cytopathic effect | PBMC |  | 1.6 µM
Cc1cc(CNC(=O)c2nc3n(c(=O)c2O)[C@@H](C)COC[C@@H]3N(C)C(=O)C(=O)N(C)C)ccc1F | EC50 |  | single cycle | HeLa P4-2 | Q148R | 0.003 µM
O=C1Nc2ccc(F)c(F)c2[C@@](C#CC2CC2)(C(F)(F)F)N1 | EC90 |  |  |  | RT-Y188C | <0.012 µM
Cc1cc(C)c(Nc2nc(Nc3ccc(C#N)cc3)nc3ccsc23)c(C)c1 | EC50 | Y-188L | luciferase | HeLa |  | >0.1 µM
COC(=O)c1ccc(CN2CCC(Nc3nc(Oc4c(C)cc(C#N)cc4C)c4ccsc4n3)CC2)cc1 | EC50 | IIIB | MTT | MT-4 | NNRTI-resistant (RT E138K) | 0.0356 µM
Cc1cc(C)c(Oc2nc(Nc3ccc(C#N)cc3)nc3ccsc23)c(C)c1 | EC50 | Y-188L | luciferase | HeLa |  | <0.01 µM
Cc1cc(C#N)cc(C)c1Oc1nc(NC2CCC(NCc3ccc([N+](=O)[O-])cc3)CC2)nc2ccsc12 | EC50 | IIIB | MTT | MT-4 | NNRTI-resistant (RT Y181C) | ≥2.65 µM
Cc1cc(C)c(Nc2nc(Nc3ccc(C#N)cc3)nc3c(C)csc23)c(C)c1 | EC50 | Y-188L | luciferase | HeLa |  | <0.01 µM
Cc1ccc2sn(/N=C/c3ccccc3Cl)c(=O)c2c1 | EC50 |  | MTT | MT-4 | K103N + Y181C | >100 µM
CC1([C@@H]2CC[C@]3(NC[C@@H](CF)N4CCS(=O)(=O)CC4)CC[C@]4(C)[C@H](CC[C@@H]5[C@@]6(C)CC[C@H](OC(=O)[C@H]7C[C@@H](C(=O)O)C7(C)C)C(C)(C)[C@@H]6CC[C@]54C)[C@@H]23)CC1 | EC50 | 92HT599 | p24 / ELISA | MT-2 |  | <0.01 µM
Cc1ccc2sn(/N=C/c3cccc(Cl)c3)c(=O)c2c1 | EC50 |  | MTT | MT-4 |  | >59 µM
Cc1cc(C#N)cc(C)c1Oc1nc(NC2CCN(Cc3ccc(S(C)(=O)=O)cc3)CC2)nc2sccc12 | EC50 | IIIB | MTT | MT-4 | NNRTI-resistant (RT E138K) | 0.00726 µM
CC1([C@@H]2CC[C@]3(NC[C@H](CO)N4CCS(=O)(=O)CC4)CC[C@]4(C)[C@H](CC[C@@H]5[C@@]6(C)CC[C@H](OC(=O)[C@H]7C[C@@H](C(=O)O)C7(C)C)C(C)(C)[C@@H]6CC[C@]54C)[C@@H]23)CC1 | EC50 | NL4-3 | p24 / ELISA | MT-4 | V7A | <0.05 µM
O=C(O)c1cc(-n2cccc2)ccc1Cl | EC50 | RF X4 CLADE B | p24 | MT-2 |  | 3.58 µM
C=C(C)[C@@H]1CC[C@]2(NC[C@H]([C@@H](C)O)N3CCS(=O)(=O)CC3)CC[C@]3(C)[C@H](CC[C@@H]4[C@@]5(C)CC[C@H](OC(=O)C6CC(C(=O)O)C6(C)C)C(C)(C)[C@@H]5CC[C@]43C)[C@@H]12 | EC50 | NL4-3 | p24 / ELISA | MT-4 | V7A | <0.05 µM
Cc1cc(C)c(Oc2nc(Nc3ccc(C#N)cc3)nc3c(C)csc23)c(C)c1 | EC50 |  | luciferase | HeLa |  | 0.01–0.1 µM
Cc1cc(CNC(=O)c2nc3n(c(=O)c2O)[C@H](C)COC[C@H]3N(C)C(=O)C(=O)N(C)C)ccc1F | EC50 |  | single cycle | HeLa P4-2 | Y143R | 0.002 µM
CC(C)OC(=O)OCOP(=O)(CO[C@H](C)Cn1cnc2c(N)ncnc21)OCOC(=O)OC(C)C | EC50 |  | p24 / ELISA | C8166 |  | 0.01861 µM
CC1([C@@H]2CC[C@]3(NC[C@H](CF)N4CCS(=O)(=O)CC4)CC[C@]4(C)[C@H](CC[C@@H]5[C@@]6(C)CC[C@H](OC(=O)[C@H]7C[C@@H](C(=O)O)C7(C)C)C(C)(C)[C@@H]6CC[C@]54C)[C@@H]23)CC1 | EC50 | NL4-3 | p24 / ELISA | MT-4 | V7A | <0.05 µM
O=c1c2ccccc2sn1/N=C/c1cccc(F)c1 | EC50 |  | MTT | MT-4 |  | >15 µM
Cc1cc(C#N)cc(C)c1Oc1nc(NC2CCN(Cc3ccc(S(N)(=O)=O)cc3)CC2)nc2sccc12 | EC50 | IIIB | MTT | MT-4 | NNRTI-resistant (RT K103N) | 0.00328 µM
C=C(C)[C@@H]1CC[C@]2(NC[C@H]([C@@H](C)OC(=O)COCCOC)N3CCS(=O)(=O)CC3)CC[C@]3(C)[C@H](CC[C@@H]4[C@@]5(C)CC[C@H](OC(=O)[C@H]6C[C@@H](C(=O)O)C6(C)C)C(C)(C)[C@@H]5CC[C@]43C)[C@@H]12 | EC50 | 92HT599 | p24 / ELISA | MT-2 |  | <0.01 µM
Cc1ccc2sn(/N=C/c3ccc(O)c(O)c3)c(=O)c2c1 | EC50 |  | MTT | MT-4 |  | >49 µM
CC1=C(C(=O)Nc2ccc(Cl)c(C(=O)OC(C)C)c2)SCCO1 | EC50 | IIIB | syncytia | CEM | RT-L100I | >112 µM
O=c1c2ccccc2sn1/N=C/c1ccc2c(c1)OCO2 | EC50 |  | MTT | MT-4 | Y181C | >17 µM
[O-][n+]1onc2ncnc(N3CC[N+]4(CC3)CC[N+]3(CCN(c5ncnc6no[n+]([O-])c56)CC3)CC4)c21 | EC50 | N119 nevirapine-resistant (RT Y181C) | cytopathic effect / XTT | MT-4 | RT-Y181C | 31.7 µM
Cc1cc(CNC(=O)c2nc3n(c(=O)c2O)CC(C)(C)CC[C@@H]3N(C)C(=O)C(=O)N(C)C)ccc1F | EC50 |  | single cycle | HeLa P4-2 | Y143R | 0.001 µM
CC1([C@@H]2CC[C@]3(NC[C@@H](CO)N4CCS(=O)(=O)CC4)CC[C@]4(C)[C@H](CC[C@@H]5[C@@]6(C)CC[C@H](OC(=O)[C@H]7C[C@@H](C(=O)O)C7(C)C)C(C)(C)[C@@H]6CC[C@]54C)[C@@H]23)CC1 | EC50 | NL4-3 | p24 / ELISA | MT-4 |  | <0.01 µM
Cc1cc(C#N)cc(C)c1Oc1nc(Nc2ccc(C#N)cc2)nc(N)c1Br | EC50 |  |  | TZM-bl | NL/181 | 0.0125 µM
Nc1nccc2c1ncn2[C@@H]1C=C(CO)[C@@H](O)[C@H]1O | EC50 | A012 POST-AZT | p24 | PBMC |  | 0.0013 µM
C[C@@H](CN[C@]12CC[C@@H](C3(C)CC3)[C@@H]1[C@H]1CC[C@@H]3[C@@]4(C)CC[C@H](OC(=O)[C@H]5C[C@@H](C(=O)O)C5(C)C)C(C)(C)[C@@H]4CC[C@@]3(C)[C@]1(C)CC2)N1CCS(=O)(=O)CC1 | EC50 | NL4-3 | p24 / ELISA | MT-4 | V7A | <0.05 µM

A second listing of 5 rows from above:

compound	measure	strain	read by	cell line	mutations	value
CC(C)OC(=O)c1cc(NC(=S)OC(C)C)ccc1Cl	EC50	IIIB	syncytia	CEM	RT-L100I	2.06 µM
Cc1ccc2sn(/N=C/c3cccc(Cl)c3)c(=O)c2c1	EC50		MTT	MT-4		>59 µM
Cc1cc(C#N)cc(C)c1Oc1nc(NC2CCN(Cc3ccc(S(C)(=O)=O)cc3)CC2)nc2sccc12	EC50	IIIB	MTT	MT-4	NNRTI-resistant (RT E138K)	0.00726 µM
Nc1nccc2c1ncn2[C@@H]1C=C(CO)[C@@H](O)[C@H]1O	EC50	A012 POST-AZT	p24	PBMC		0.0013 µM
O=C1Nc2ccc(Cl)cc2[C@@](/C=C/C2CC2)(C(F)(F)F)N1	EC90				RT-K101E	<0.012 µM